Results deposited as PubChem BioAssay AID1224833 (University of Georgia, 2016)

Purpose: 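Host factors restraining rotavirus as candidate antiviral genes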 (primary screen)
System: monkey MA104 kidney cells
Knock-down reagent: siRNA pool against human genes, 50 nM
Time to read-out: 48 h knock-down before infection; read 24 h after infection
Challenge: infection with rotavirus strain RV3 two days after transfection; infectious dose for this stage not given
Read-out: 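Rotavirus antigen per well by fluorescent immunoassay, normalised to non-targeting control wells on each plate and given as a standard z-score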
Direction: z-score vs non-targeting control: higher = more rotavirus replication than with non-targeting control
Hit rule: In these data the active calls have z-score vs non-targeting control at about -1 or lower, or at about 1 or higher
Calls: active = z-score beyond 1 either way; inactive = z-score within 1 of zero
The whole screen tested about 12,000 reagents; shown is a part drawn at random. About 5,600 of all reagents (46%) count as active. 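Active calls cover z-scores past 1 in both directions, so they include lowered as well as raised rotavirus replication.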

EDDM3A showed z-score vs non-targeting control -1.64; active.
With knock-down of MAGEH1 the results were z-score vs non-targeting control -0.671; inactive.
AP5Z1 showed z-score vs non-targeting control 0.446; inactive.
AGER showed z-score vs non-targeting control 0.552; inactive.
ZNF169 gave z-score vs non-targeting control 0.0164; inactive.
Silencing of MAT1A resulted in: z-score vs non-targeting control -1.04; active.
GBP1 showed z-score vs non-targeting control -0.677; inactive.
ZNF253 scored z-score vs non-targeting control -0.982; inactive.
After knock-down of LSM14B, the screen gave z-score vs non-targeting control -0.542; inactive.
Depletion of PEX5 resulted in: z-score vs non-targeting control 0.941; inactive.
For ESRRA, the entry reads z-score vs non-targeting control 0.545; inactive.
ATP13A4 gave z-score vs non-targeting control 0.672; inactive.
SERPINA5 scored z-score vs non-targeting control -1.94; active.
ZNF235 scored z-score vs non-targeting control -1.58; active.
Silencing of RANBP9 resulted in: z-score vs non-targeting control -0.976; inactive.
PCYT1B gave z-score vs non-targeting control 1.56; active.
NDUFA6 gave z-score vs non-targeting control -0.498; inactive.
SMARCAD1 scored z-score vs non-targeting control -1.87; active.
Knock-down of SURF4 gave: z-score vs non-targeting control 0.271; inactive.
With knock-down of OR5K2 the results were z-score vs non-targeting control -0.312; inactive.
Depletion of OR10C1 resulted in: z-score vs non-targeting control 0.403; inactive.
With knock-down of USP10, the record shows z-score vs non-targeting control 1.61; active.
BEX2 scored z-score vs non-targeting control 0.977; inactive.
TIMM10 gave z-score vs non-targeting control 0.944; inactive.
Knock-down of CLLU1 came out at: z-score vs non-targeting control 0.0097; inactive.
CARHSP1 showed z-score vs non-targeting control 0.0323; inactive.
TBCE showed z-score vs non-targeting control -0.0111; inactive.
For ZNF793 the deposit lists z-score vs non-targeting control -1.16; active.
MTHFD2L gave z-score vs non-targeting control -0.99; inactive.
For TGM1 the deposit lists z-score vs non-targeting control -1.46; active.
For BCO1, the values are z-score vs non-targeting control 1.24; active.
For ARL9 the deposit lists z-score vs non-targeting control -2.76; active.
Knock-down of ZNF717 resulted in: z-score vs non-targeting control -1.79; active.
Against HYLS1 the deposit lists z-score vs non-targeting control -0.486; inactive.
AHSG gave z-score vs non-targeting control -0.71; inactive.
Knock-down of IL18R1 resulted in: z-score vs non-targeting control -1.01; active.
With knock-down of WASHC4, the record shows z-score vs non-targeting control -0.752; inactive.
Depletion of EIF4E came out at: z-score vs non-targeting control -2.01; active.
Knock-down of SLC6A4 gave: z-score vs non-targeting control 0.614; inactive.
For DNAJB2, the values are z-score vs non-targeting control -1.04; active.
Against WDFY2, the entry reads z-score vs non-targeting control -0.275; inactive.
PMM2 gave z-score vs non-targeting control 0.485; inactive.
OSBPL7 showed z-score vs non-targeting control -0.117; inactive.
Against MPPE1, the entry reads z-score vs non-targeting control 0.783; inactive.
Against EPHX2, the entry reads z-score vs non-targeting control 3.85; active.
Against N4BP1 the deposit lists z-score vs non-targeting control -1.02; active.
After knock-down of ZNF607, the record shows z-score vs non-targeting control -1.23; active.
With knock-down of PLEKHH1 the results were z-score vs non-targeting control -1.34; active.
Silencing of GINS2 resulted in: z-score vs non-targeting control 2.34; active.
Depletion of ABCF1 gave: z-score vs non-targeting control -1.42; active.
For KRTAP11-1, the entry reads z-score vs non-targeting control -1.13; active.
After knock-down of PRRG2, the record shows z-score vs non-targeting control 0.229; inactive.
For ABI2 the deposit lists z-score vs non-targeting control 0.969; inactive.
Against TIMM10B, the entry reads z-score vs non-targeting control -2.23; active.
Depletion of PCSK1N came out at: z-score vs non-targeting control 1.2; active.
After knock-down of EDA, the record shows z-score vs non-targeting control -0.788; inactive.
With knock-down of ANKAR, the record shows z-score vs non-targeting control -0.621; inactive.
For FLT3LG, the values are z-score vs non-targeting control -0.411; inactive.
MOG scored z-score vs non-targeting control -0.842; inactive.
Depletion of FEM1A came out at: z-score vs non-targeting control 0.665; inactive.

Records listed so far whose target name begins with W or w (2):
WASHC4: z-score vs non-targeting control = -0.752; call = inactive
WDFY2: z-score vs non-targeting control = -0.275; call = inactive
